Data: patent US20100262098A1, “ABSORBENT ARTICLE WITH ODOUR CONTROL SUBSTANCE” (SCA Hygiene Products AB, priority 2007, published 2010)

Assay: Effect of lipid on liquid uptake of treated pulp
Settings: same amount of lipid added to pulp

SMILES: CCCCCCCCCCCCCCCCCC(=O)OCC(COC(=O)CCCCCCCCCCCCCCCCC)OC(=O)CCCCCCCCCCCCCCCCC [tristearin]
- Effect on liquid uptake of treated pulp: clear hydrophobization of the treated pulp
